PubChem BioAssay AID1259414 – Drosophila RNAi Screening Center, 2018

Assay: 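Genome-wide screen for host control of endosymbiont load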 (primary screen)
System: Drosophila JW18 cells infected with Wolbachia
Reagents: long dsRNA against Drosophila genes, 0.25 µg dsRNA per well of a 384-well plate
Time to read-out: 5 days
Conditions: cells persistently infected with Wolbachia before knock-down; no added drug
Measured: 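Imaged fluorescence in situ signal for Wolbachia 23S rRNA per DAPI-counted host cell, given as a robust z-score within each plate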
Scale: Wolbachia per cell robust z: higher = more Wolbachia per host cell than the plate typical
Hit rule: 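Hit when robust z is 1.5 or more, or -1.5 or less, in at least two of three replicates; excludes dsRNAs with several or no targets, genes not expressed in JW18 and well A1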
The deposit covers about 24,000 reagents; this is a random part of those that have a named target and a result. Of all reagents, about 1,210 (5%) were called active. 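Inactive calls also include excluded dsRNAs with several or no targets, genes unexpressed in JW18, and well A1, regardless of score.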 Names joined by + are all predicted targets of the reagent. No sequences are given here.

predicted target | dsRNA | Wolbachia per cell robust z, rep 1 | Wolbachia per cell robust z, rep 2 | Wolbachia per cell robust z, rep 3 | Call
Cyp40 (GeneID 39121) | DRSC10980 | 0.182 | 0.281 | -0.958 | inactive
Cyp40 (GeneID 39121) | DRSC29553 | 1.59 | 1.58 | 0.448 | active
HSPBAP1 (GeneID 43329) | DRSC14567 | -0.443 | 0.552 | -0.134 | inactive
CG10920 (GeneID 31688) | DRSC17765 | -5.69 | -0.631 | -1.03 | inactive
PIG-H (GeneID 40944) | DRSC14856 | 0.275 | -12.4 | 0.0161 | inactive
Lint-1 (GeneID 32055) | DRSC19822 | -4.19 | -1.21 | -0.551 | inactive
Lint-1 (GeneID 32055) | DRSC28176 | -0.875 | -1.64 | -0.913 | inactive
CG11905 (GeneID 39895) | DRSC09863 | 0.806 | -0.143 | -2.78 | inactive
CG11905 (GeneID 39895) | DRSC24702 | 0.363 | -0.437 | -0.695 | inactive
CG8468 (GeneID 36577) | DRSC07190 | 0.0236 | -0.276 | 0.016 | inactive
CG8468 (GeneID 36577) | DRSC26347 | 0.631 | 0.312 | -0.772 | inactive
tyf (GeneID 31363) | DRSC18382 | 0.614 | -0.814 | -0.628 | inactive
tyf (GeneID 31363) | DRSC26245 | -0.732 | 0.882 | 0.778 | inactive
Edg91 (GeneID 42117) | DRSC16657 | -4.4 | 1.15 | 1.03 | inactive
Mekk1 (GeneID 42253) | DRSC16302 | 1.14 | 0.98 | 2.51 | inactive
Mekk1 (GeneID 42253) | DRSC16303 | 1.26 | 1.48 | 0.856 | inactive
CG3156 (GeneID 30994) | DRSC18503 | 1.19 | -0.488 | -0.197 | inactive
CG3156 (GeneID 30994) | DRSC27939 | -1.59 | -0.223 | 0.0342 | inactive
lbk (GeneID 36788) | DRSC07178 | -0.292 | 0.706 | -0.153 | inactive
CG2915 (GeneID 35754) | DRSC06842 | 0.0239 | 0.672 | 1.03 | inactive
CG15614 (GeneID 36899) | DRSC06567 | 0.266 | -0.663 | -1.83 | inactive
CG32687 (GeneID 31980) | DRSC18210 | -2.55 | 0.527 | 0.236 | inactive
CG32687 (GeneID 31980) | DRSC18237 | -5.28 | 0.0147 | 0.237 | inactive
Marc (GeneID 36014) | DRSC06614 | -0.408 | 0.0446 | -0.314 | inactive
CG14561 (GeneID 40447) | DRSC11722 | 0.133 | -0.797 | 0.223 | inactive
Arl5 (GeneID 38931) | DRSC10785 | -0.0532 | 0.54 | -0.632 | inactive
Arl5 (GeneID 38931) | DRSC25831 | -0.916 | 0.295 | -1.02 | inactive
l(2)SH0834 (GeneID 34386) | DRSC02854 | -0.407 | 0.0116 | 1.91 | inactive
CG6983 (GeneID 38964) | DRSC10757 | -7.57 | 0.00167 | 1.03 | inactive
Ten-a (GeneID 32183) | DRSC18924 | -2.45 | 0.798 | -0.65 | inactive
Ten-a (GeneID 32183) | DRSC19700 | -4.37 | 0.835 | -1.15 | inactive
Ten-a (GeneID 32183) | DRSC19793 | -0.681 | -0.269 | -0.705 | inactive
Ten-a (GeneID 32183) | DRSC19864 | -0.183 | -0.677 | -3.77 | inactive
Ten-a (GeneID 32183) | DRSC19865 | -0.307 | -4.54 | -1.54 | active
Ten-a (GeneID 32183) | DRSC20290 | -4.85 | 0.246 | 0.503 | inactive
Ten-a (GeneID 32183) | DRSC21461 | 0.62 | 0.0608 | -1.2 | inactive
Ten-a (GeneID 32183) | DRSC23016 | 0.304 | 0.796 | -3.89 | inactive
Ten-a (GeneID 32183) | DRSC29598 | -0.374 | -2.34 | -0.99 | inactive
Rab35 (GeneID 33014) | DRSC20691 | 1.1 | 2.03 | 1.66 | active
Rab35 (GeneID 33014) | DRSC26739 | -5.5 | -3.81 | -6.91 | inactive
CG15020 (GeneID 38544) | DRSC08474 | -2.29 | -0.467 | -0.545 | inactive
Dpy-30L2 (GeneID 38480) | DRSC08205 | 1.26 | -3.85 | 0.515 | inactive
Dpy-30L2 (GeneID 38480) | DRSC25695 | 0.0332 | -0.0328 | 0.32 | inactive
ChAT + VAChT | DRSC13312 | -0.561 | 0.698 | 0.999 | inactive
Nubpl (GeneID 35452) | DRSC03725 | -0.198 | 0.596 | 0.214 | inactive
Sqor (GeneID 38514) | DRSC08453 | -0.461 | -0.278 | 0.686 | inactive
Sqor (GeneID 38514) | DRSC27056 | 1.19 | 1.12 | 3.02 | inactive
CG1299 (GeneID 38496) | DRSC08300 | 0.0856 | -1.65 | -0.377 | inactive

Limited to “Wolbachia per cell robust z, rep 3”, for 5 of the entries above:
Ten-a (GeneID 32183) [DRSC19864]	-3.77
Ten-a (GeneID 32183) [DRSC19865]	-1.54
Ten-a (GeneID 32183) [DRSC20290]	0.503
Ten-a (GeneID 32183) [DRSC21461]	-1.2
Ten-a (GeneID 32183) [DRSC23016]	-3.89

More entries:
predicted target | dsRNA | Wolbachia per cell robust z, rep 1 | Wolbachia per cell robust z, rep 2 | Wolbachia per cell robust z, rep 3 | Call
p53 (GeneID 2768677) | DRSC17024 | 0.21 | 0.975 | -0.247 | inactive
p53 (GeneID 2768677) | DRSC40777 | 0.295 | 0.195 | 0.0508 | inactive
CG14780 (GeneID 31102) | DRSC18566 | -0.511 | 0.606 | 0.148 | inactive
CG30037 (GeneID 246409) | DRSC07305 | 0.557 | -0.423 | -0.161 | inactive
x16 (GeneID 33967) | DRSC00960 | 1.04 | 0.915 | 0.203 | inactive
x16 (GeneID 33967) | DRSC03638 | 0.721 | -6.5 | -0.0369 | inactive
x16 (GeneID 33967) | DRSC23865 | 0.302 | 0.345 | -0.144 | inactive
Bro (GeneID 38202) | DRSC08149 | 0.482 | -0.287 | -2.69 | inactive
CG42753 (GeneID 10178923) | DRSC41401 | -0.569 | 0.632 | -1.02 | inactive
CG5039 (GeneID 43100) | DRSC15703 | -0.672 | -0.428 | -3.6 | inactive
CG5039 (GeneID 43100) | DRSC27367 | 0.0402 | 0.396 | 0.123 | inactive
E(spl)m7-HLH (GeneID 43160) | DRSC16696 | -3.89 | 0.631 | 0.337 | inactive
E(spl)m7-HLH (GeneID 43160) | DRSC29451 | -0.385 | 1.58 | -0.289 | inactive
Git (GeneID 36122) | DRSC06620 | 0.256 | 0.952 | 0.675 | inactive
Git (GeneID 36122) | DRSC28567 | -0.541 | 1.06 | 0.211 | inactive
mRF1 (GeneID 34720) | DRSC02880 | -0.887 | 0.141 | -1.18 | inactive
mRF1 (GeneID 34720) | DRSC29576 | 0.234 | 0.416 | 0.752 | inactive
Kua (GeneID 35300) | DRSC02100 | 0.156 | 0.187 | 0.718 | inactive
Cyp313a2 (GeneID 41487) | DRSC16625 | 0.204 | 1.09 | -6.4 | inactive
comt (GeneID 47091) | DRSC20319 | -0.317 | 1.11 | -0.755 | inactive
comt (GeneID 47091) | DRSC25218 | 0.222 | 0.175 | -1.27 | inactive
Obp85a (GeneID 41006) | DRSC14362 | 0.0537 | -1.26 | -0.301 | inactive
CecB (GeneID 43598) | DRSC16605 | 0.64 | 0.292 | -6.05 | inactive
sina + Rh4 | DRSC11396 | -2.74 | -0.494 | -0.729 | inactive
rst (GeneID 31290) | DRSC17243 | -1.27 | -1.18 | -1.05 | inactive
rst (GeneID 31290) | DRSC18828 | -0.731 | -0.0921 | -3.5 | inactive
rst (GeneID 31290) | DRSC25716 | 0.654 | 2.63 | 1.26 | inactive
rst (GeneID 31290) | DRSC40677 | -1 | -1.09 | -0.071 | inactive
CG31952 (GeneID 326179) | DRSC00428 | -0.48 | -0.15 | 0.66 | inactive
CG31952 (GeneID 326179) | DRSC21997 | 1.05 | 0.334 | 0.25 | inactive
CG31952 (GeneID 326179) | DRSC26442 | 0.241 | 0.792 | -0.63 | inactive
sev (GeneID 32039) | DRSC20372 | 0.0313 | 0.28 | 0.547 | inactive
sev (GeneID 32039) | DRSC39109 | -2.11 | -4.75 | -0.176 | inactive
CG17237 (GeneID 33411) | DRSC00491 | -2.08 | 0.934 | -0.186 | inactive
CG33946 (GeneID 26067038) | DRSC37877 | -1.65 | -0.534 | 0.768 | inactive
CG33946 (GeneID 26067038) | DRSC39122 | 0.404 | 0.963 | 0.588 | inactive
CG1688 (GeneID 36005) | DRSC23207 | 0.315 | 0.875 | 0.116 | inactive
CG34217 (GeneID 5740254) | DRSC38886 | -0.723 | 0.37 | 0.108 | inactive
deltaCOP (GeneID 45250) | DRSC18760 | 4.74 | 3.27 | 2.76 | active
deltaCOP (GeneID 45250) | DRSC25961 | 1.26 | 2.39 | 3.01 | active
